The data set has as its system kanamycin A. Briefly: purified protein, by the assay type. As to conditions: other: Eis_Mtb 0.25 μM; 500 μM AcCoA; apparent; pH 7.5; 25.0 °C.

A word on the Km: it is the concentration of substrate that gives half-maximal velocity. Broadly, the kcat is the maximal rate divided by the concentration of active sites. As usually defined, the kcat/Km is the second-order rate constant that governs catalysis at low substrate concentration. On to “Eis_Mtb (Mycobacterium tuberculosis H37Rv)”, for which the Km was determined as 330 ± 40 µM, the kcat turned out to be 0.526 s⁻¹ and the kcat/Km worked out at 1590 M⁻¹ s⁻¹.

The record behind these values is publication PMC3496871 (Molecular bioSystems, 2012).
